From patent publication US8048862B2, “Macrocyclic inhibitors of hepatitis C virus replication” (priority 2008, dated 2011)
The structures given here were assigned with low confidence; some may be wrong.

Protein sequences, listed by entry. Tags and fused reporters are not part of them. Residues count along the entry.
UniProt P27958, 1027-1657 limits assumed: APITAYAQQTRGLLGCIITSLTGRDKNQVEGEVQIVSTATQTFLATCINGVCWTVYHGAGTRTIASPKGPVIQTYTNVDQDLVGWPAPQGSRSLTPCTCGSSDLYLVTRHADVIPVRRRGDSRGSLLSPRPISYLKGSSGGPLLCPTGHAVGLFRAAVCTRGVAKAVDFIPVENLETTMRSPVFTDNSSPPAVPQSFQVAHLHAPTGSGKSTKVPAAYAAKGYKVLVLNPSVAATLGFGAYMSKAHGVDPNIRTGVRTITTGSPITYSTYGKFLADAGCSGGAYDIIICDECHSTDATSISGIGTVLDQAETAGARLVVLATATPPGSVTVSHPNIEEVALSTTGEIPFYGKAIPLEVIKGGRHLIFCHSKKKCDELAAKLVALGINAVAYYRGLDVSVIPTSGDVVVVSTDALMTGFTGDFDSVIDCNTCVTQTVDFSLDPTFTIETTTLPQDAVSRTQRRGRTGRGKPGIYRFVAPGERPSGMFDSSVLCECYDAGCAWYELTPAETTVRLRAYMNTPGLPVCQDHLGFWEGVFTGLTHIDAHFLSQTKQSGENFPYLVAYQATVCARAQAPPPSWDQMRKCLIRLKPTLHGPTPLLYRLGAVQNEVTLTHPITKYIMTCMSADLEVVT
UniProt P27958, 1658-1711 partner limits assumed: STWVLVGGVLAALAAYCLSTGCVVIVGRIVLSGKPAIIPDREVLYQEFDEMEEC

Tests used:
[1] = target: NS3/NS4 complexes (Hepatitis C virus genotype 1a, UniProt P27958); experiment: NS3/NS4 inhibition activity (IC50); type: biochemical; conditions: read-out: IC50 nM, Table 2
Source text: NS3-NS4 inhibition activity can be determined using known assay methods. For example, NS3/NS4 complexes may be formed and inhibitory concentrations of test compounds determined as described in U.S. Patent Application Publication Number 2007/0054842 paragraph numbers 1497-1509, which is incorporated herein by reference in its entirety. Similarly, hepatitis C replicon EC50 may be determined using known assay methods such as described in U.S. Patent Application Publication Number 2007/0054842 paragraph numbers 1510-1515. Assays may be conducted at ambient temperature (23° C.) in assay buffer containing 50 mM Tris-HCl, pH 7.5, 15% glycerol, 0.6 mM Lauryldimethylamine Oxide (LDAO), 25 μM NS4A peptide, and 10 mM Dithiothreitol (DTT).

[2] = tested on: hepatitis C replicon; experiment: hepatitis C replicon EC50; type: cell-based, hepatitis C virus; conditions: read-out: EC50 nM, Table 2

Question: For `COc1ccc2c(O[C@@H]3C[C@H]4C(=O)N[C@]5(C(=O)NS(=O)(=O)C6CC6)C[C@H]5/C=C\CCCCC[C@H](Nc5cccc(C#N)c5)C(=O)N4C3)cc(-c3nc(C(C)C)cs3)nc2c1C`, which IC50 [1] is on record?
Answer: < 10 nM

Question: And the EC50 [2]?
Answer: < 10 nM
